Article PMC9365860 (Cell Reports, 2022)

Target: Recombinant stabilized SARS-CoV-2 spike for ELISA (Wuhan) (SARS-CoV-2, Wuhan, stabilised)
Assay: ELISA
Conditions: both partners purified

B1: P008_60 F(ab')2 (other)
VH: EVQLVESGGGVVQPGRSLRLTCAASGFIFSSYGMHWVRQAPGKGLEWVAVISYDGSYKYYADSVKGRFTISRDNSKNTLYLQMNSLRAEDTAVYYCTKADYYDFWSGYQKTYYYYMDVWGKGTTVTISS
VL: DIQLTQSPGTLSLSPGERATLS[letters of about 80 residues omitted]ITFGQGTRLEIK
binding result: binds
